A mixed list of measured activities; the numbers were collected in NIAID ChemDB.

Shared fields: tests in culture; agent: Candida albicans

MIC50, MIC90 and the like: level of inhibition, or share of isolates inhibited.

{"compound": "CC(=Nc1cccc(Br)c1)c1cc(C(C)=Nc2cccc(Br)c2)c(O)cc1O", "read by": "broth dilution", "measure": "MIC", "strain": "MTCC 227", "value": "1000 µg/mL"}
{"compound": "COc1cccc(C=O)c1", "read by": "agar diffusion / agar", "measure": "MIC90", "strain": "1131", "value": "600–900 µg/mL"}
{"compound": "O=C(CN1CCN(C(c2ccccc2)c2ccc(Cl)cc2)CC1)Cn1cncn1", "read by": "broth dilution", "measure": "MIC", "strain": "ATCC 76615", "value": "100 µg/mL"}
{"compound": "C[C@H]1[C@H](O)[C@@H](C)/C=C/C=C/C=C/C=C/C=C/C=C/C=C/[C@H](O[C@@H]2O[C@H](C)[C@@H](O)[C@H](N)[C@@H]2O)C[C@@H]2O[C@](O)(C[C@@H](O)C[C@@H](O)CC[C@H](O)[C@@H](O)C[C@@H](O)CC(=O)O[C@H]1C)C[C@H](O)[C@H]2C(=O)O", "measure": "MIC", "strain": "ATCC 64549", "value": "0.4 µg/mL"}
{"compound": "CCC(=O)NC(CC(C)C)C(=O)NC(Cc1cnc[nH]1)C(C)=O", "measure": "MIC", "strain": "MUCC 29", "value": "6 µg/mL"}
{"compound": "O=c1ccc2cc3ccoc3cc2o1", "read by": "broth dilution", "measure": "EC50", "strain": "105", "value": "<400 µg/mL"}
{"compound": "Nc1[nH]c(=O)ncc1F", "measure": "MIC", "strain": "ATCC 90029", "value": "32 µg/mL"}
{"compound": "C[C@@H]1O[C@@H](O[C@H]2[C@H](O[C@H]3CC[C@@]4(C)[C@@H](CC[C@]5(C)[C@@H]4CC=C4[C@@H]6CC(C)(C)CC[C@]6(C(=O)O)CC[C@]45C)[C@]3(C)CO)OC[C@H](O)[C@@H]2O)[C@H](O)[C@H](O)[C@H]1O", "measure": "MIC", "strain": "KCTC 1940", "value": "25 µg/mL"}
{"compound": "CCCCCSc1nc2ccc(N)cc2s1", "measure": "EC50", "strain": "IEM 49/64", "value": "<100 µM"}
{"compound": "CCN(CC)N1C(=O)C(C(Sc2ccccc2)c2ccc(Cl)cc2)SC1=S", "read by": "broth dilution", "measure": "MIC", "strain": "ATCC 2091", "value": "32 µg/mL"}
{"compound": "CCCCCCCCCCCCCCCC(=O)NC1CC(O)C(O)NC(=O)C2C(O)C(C)CN2C(=O)C(C(O)CC(N)=O)NC(=O)C(C(O)C(O)c2ccc(O)c(S(=O)(=O)O)c2)NC(=O)C2CC(O)CN2C(=O)C(C(C)O)NC1=O", "measure": "MIC", "strain": "FP633", "value": "0.2 µg/mL"}
{"compound": "Cc1ccccc1.Cc1ccccc1.SP1(Sc2ccccc2)=NP2(=NP(Cl)(Cl)=N1)NCCCN2CCCCN1CCCNP12=NP(Cl)(Cl)=NP(S)(Sc1ccccc1)=N2", "read by": "broth dilution", "measure": "MIC", "strain": "ATCC 102031", "value": "2–1024 µg/mL"}
{"compound": "COc1cccc(N=C(C)c2cc(C(C)=Nc3cccc(OC)c3)c(O)cc2O)c1", "read by": "broth dilution", "measure": "MIC", "strain": "MTCC 227", "value": "250 µg/mL"}
{"compound": "Cc1ccccc1.Cc1ccccc1.NP1(Nc2ccccc2)=NP2(=NP(Cl)(Cl)=N1)NCCCN2CCCCN1CCCNP12=NP(Cl)(Cl)=NP(N)(Nc1ccccc1)=N2", "read by": "broth dilution", "measure": "MIC", "strain": "ATCC 102031", "value": "2–1024 µg/mL"}
{"compound": "CC(=O)C1CCCN1C", "measure": "MIC", "strain": "MUCC 29", "value": "12.5 µg/mL"}
{"compound": "O=C1NC(=S)SC1C(Sc1ccccc1)c1ccc(Br)cc1", "read by": "broth dilution", "measure": "MIC", "strain": "ATCC 2091", "value": "32 µg/mL"}
{"compound": "CCN1C(=O)C2(C3=C(C(=O)c4ccccc4C3=O)C3CCCN32)c2ccccc21", "read by": "agar diffusion", "measure": "MIC", "value": "125 µg/mL"}
{"compound": "Clc1ccc(CC[C@@H](Cn2ccnc2)Sc2c(Cl)cccc2Cl)cc1", "measure": "MIC", "value": "5 µg/mL"}
{"compound": "CCN(CC)N1C(=O)C(C(Sc2ccccc2)c2ccc(C)cc2)SC1=S", "read by": "broth dilution", "measure": "MIC", "strain": "ATCC 2091", "value": "64 µg/mL"}
{"compound": "C[C@@H](c1nc(-c2ccc(C#N)cc2)cs1)[C@](O)(Cn1cnnc1)c1ccc(F)cc1F", "measure": "MIC", "strain": "Isogenic isolate 14 Erg11 (4-5X) R467K", "value": "0.03 µg/mL"}
{"compound": "OC1C(F)(F)C(F)(F)C(O)P2(Cl)=NP3(=NP1(Cl)=N2)NCCCN3CCCCN1CCCNP12=NP1(Cl)=NP(Cl)(=N2)C(O)C(F)(F)C(F)(F)C1O", "read by": "broth dilution", "measure": "MIC", "strain": "ATCC 102031", "value": "2–1024 µg/mL"}
{"compound": "O=C(CSc1nc2ccccc2[nH]1)N1CCN(C(c2ccccc2)c2ccc(Cl)cc2)CC1", "read by": "broth dilution", "measure": "MIC", "strain": "ATCC 76615", "value": ">400 µg/mL"}
{"compound": "CCC(C)C(C)C(=O)NC(Cc1ccc(O)cc1)C(C)=O", "measure": "MIC", "strain": "MUCC 29", "value": "12.5 µg/mL"}
{"compound": "Nc1nc(=O)n([C@H]2CS[C@@H](CO)O2)cc1F", "measure": "MIC50", "strain": "183 strains", "value": "0.125 µg/mL"}
{"compound": "C=C1CC(N)[C@H](CO)C1", "measure": "EC50", "value": ">256 µg/mL"}
{"compound": "C[C@@H]1O[C@@H](OC2[C@H](O[C@H]3CC[C@@]4(C)[C@@H](CC[C@]5(C)[C@@H]4CC=C4[C@@H]6CC(C)(C)CC[C@@]6(C(=O)O)CC[C@]45C)[C@]3(C)CO)OC[C@H](O)[C@@H]2O)[C@H](O)[C@H](O[C@@H]2O[C@H](CO)[C@@H](O)[C@H](O)[C@H]2O)[C@H]1O", "measure": "MIC", "strain": "KCTC 1940", "value": ">200 µg/mL"}
{"compound": "C[C@H]1[C@H](O)[C@@H](C)/C=C/C=C/C=C/C=C/C=C/C=C/C=C/[C@H](O[C@@H]2O[C@H](C)[C@@H](O)[C@H](N)[C@@H]2O)C[C@@H]2O[C@](O)(C[C@@H](O)C[C@@H](O)CC[C@H](O)[C@@H](O)C[C@@H](O)CC(=O)O[C@H]1C)C[C@H](O)[C@H]2C(=O)O", "measure": "MIC50", "strain": "183 strains", "value": "0.5 µg/mL"}
{"compound": "CC1(C)C(O)P2(=NP3(=NP(Cl)(Cl)=N2)NCCCN3CCCCN2CCCNP23=NP(Cl)(Cl)=NP2(=N3)C(O)C(C)(C)C2O)C1O", "read by": "broth dilution", "measure": "MIC", "strain": "ATCC 102031", "value": "2–1024 µg/mL"}
{"compound": "C[C@]1(N)CCC[C@H]1C(=O)O", "measure": "EC50", "value": "64 µg/mL"}
{"compound": "O=C1NC(=S)S/C1=C\\c1cccs1", "read by": "broth dilution", "measure": "MIC", "strain": "ATCC 2091", "value": "64 µg/mL"}
{"compound": "C=C1C[C@H](C(=O)O)[C@@H](N)C1", "measure": "EC50", "value": "128 µg/mL"}
{"compound": "CC(=O)C1CCCN1C(=O)C(C)Cc1ccccc1", "measure": "MIC", "strain": "MUCC 29", "value": "6 µg/mL"}
{"compound": "Cc1cccc(C(Sc2ccccc2)C2SC(=S)NC2=O)c1", "read by": "broth dilution", "measure": "MIC", "strain": "ATCC 2091", "value": "32 µg/mL"}
{"compound": "OC(CCl)CN1CCN(C(c2ccccc2)c2ccc(Cl)cc2)CC1", "read by": "broth dilution", "measure": "MIC", "strain": "ATCC 76615", "value": "100 µg/mL"}
{"compound": "Clc1ccccc1C(c1ccccc1)(c1ccccc1)n1ccnc1", "read by": "agar diffusion / agar", "measure": "MIC100", "value": "7.8 µg/mL"}
{"compound": "CCN(CC)N1C(=O)C(C(Sc2ccccc2)c2ccc3ccccc3c2)SC1=S", "read by": "broth dilution", "measure": "MIC", "strain": "ATCC 2091", "value": "32 µg/mL"}
{"compound": "Cn1c([N+](=O)[O-])cnc1S(C)(=O)=O", "measure": "MIC", "strain": "18 isolates", "value": "60 µg/mL"}
{"compound": "C=C1CC[C@H](N)[C@H](C(=O)O)C1", "measure": "EC50", "value": ">256 µg/mL"}
{"compound": "CC(=O)C(Cc1c[nH]c2ccccc12)NC(=O)C1CCCN1C(=O)C(C)C", "measure": "MIC", "strain": "MUCC 29", "value": "12.5 µg/mL"}
{"compound": "C=C1C[C@@H](N)[C@@H](C(=O)O)C1", "measure": "EC50", "value": "128 µg/mL"}
{"compound": "CC(=O)C(C)C(C)O", "measure": "MIC", "strain": "MUCC 29", "value": "12.5 µg/mL"}
{"compound": "NC1C[C@H](N)[C@H](C(=O)O)C1", "measure": "EC50", "value": "64 µg/mL"}
{"compound": "O=C1NC(=S)SC1C(O)c1ccc(Cl)cc1Cl", "read by": "broth dilution", "measure": "MIC", "strain": "ATCC 2091", "value": "64 µg/mL"}
{"compound": "CC1CC[C@@H](C(=O)O)[C@H]1N", "measure": "EC50", "value": "128 µg/mL"}
{"compound": "CC(=O)C(C)Cc1ccc(O)cc1", "measure": "MIC", "strain": "MUCC 29", "value": "6 µg/mL"}

For reference, 6 entries again:

compound,read by,measure,strain,value
CC(=O)C1CCCN1C(=O)C(C)Cc1ccccc1,-,MIC,MUCC 29,6 µg/mL
NC1C[C@H](N)[C@H](C(=O)O)C1,-,EC50,-,64 µg/mL
C=C1CC(N)[C@H](CO)C1,-,EC50,-,>256 µg/mL
Cc1ccccc1.Cc1ccccc1.NP1(Nc2ccccc2)=NP2(=NP(Cl)(Cl)=N1)NCCCN2CCCCN1CCCNP12=NP(Cl)(Cl)=NP(N)(Nc1ccccc1)=N2,broth dilution,MIC,ATCC 102031,2–1024 µg/mL
CC1CC[C@@H](C(=O)O)[C@H]1N,-,EC50,-,128 µg/mL
CCC(=O)NC(CC(C)C)C(=O)NC(Cc1cnc[nH]1)C(C)=O,-,MIC,MUCC 29,6 µg/mL

An empty or dashed field is not shown. a–b is a range or a potency band. ECn is the concentration giving n% inhibition of infection, replication or growth. Neighbouring rows are from separate reports.